Anti-infective test results gathered from many reports (values: NIAID ChemDB through PubChem).

Common to all: growth or infection tests

Rows are shuffled and stem from different studies.

SMILES	strain	endpoint	organism	read by	dose	cells	value
CCO/N=C/c1ccc(OCCC2CCN(c3ccc(C)nn3)CC2)cc1	5426-CV26 (ICAM-1 receptor group 25)	EC50	Rhinovirus	neutral red	-	KB	>4.588 µM
Nc1cc(Cl)nc2c1ncn2[C@@H]1O[C@H](CO)C[C@H]1O	IRB-LA	EC50	Bovine herpesvirus 1	cytopathic effect	-	MDBK	>50 µM
CC(=O)NC[C@H]1CN(c2ccc(N3CCN(C(=O)CO)CC3)c(F)c2)C(=O)O1	Oxacillin-susceptible	MIC50	Staphylococcus aureus	-	-	-	1–4 µg/mL
N[C@@H](C(=O)N[C@@H]1C(=O)N2C(C(=O)O)=C(Cl)CS[C@H]12)c1ccccc1	44 strains	MIC90	Haemophilus influenzae	-	-	-	2 µg/mL
NC12CC3CC(CC(C3)C1)C2	Influenza A/Kitakyushu/159/93 (H3N2)	EC50	Influenza A virus	plaque count	-	MDCK	>50 µg/mL
C[C@H]1C[C@@H](n2cnc3c(N)ncnc32)[C@H](O)[C@@H]1O	-	EC50	Tacaribe virus	cytopathic effect	-	VERO	23 µg/mL
Cc1cc(=O)c2c(O)c3c(O)cc(O)c4c5c(O)cc(O)c6c(O)c7c(=O)cc(C)c8c1c2c(c34)c(c65)c78	NEW YORK	EC50	West Nile virus	cytopathic effect / visual reading	-	VERO	>10 µg/mL
O=c1c(O)c(-c2ccc(O)c(O)c2)oc2cc(O)cc(O)c12	Clinical isolate 6	MIC50	Candida tropicalis	broth dilution	-	-	>128 µg/mL
CCn1cc(C(=O)O)c(=O)c2cc(F)c(N3CCNCC3)cc21	44 strains	MIC50	Haemophilus influenzae	-	-	-	0.06 µg/mL
Nc1nc2c(ncn2CCC(CO)CO)c(=O)[nH]1	PMEDAP-resistant	EC50	Varicella zoster virus	plaque count	-	HEL	0.51 µg/mL
O=C1C=CN([C@@H]2O[C@H](CO)[C@@H](O)[C@H]2O)C(=O)C1	NEW YORK	EC50	West Nile virus	cytopathic effect / visual reading	-	VERO	>683 µg/mL
OC[C@H]1O[C@@H](n2cnc3c(NC4CC4)ncnc32)C[C@@H]1O	IRB-LA	EC50	Bovine herpesvirus 1	cytopathic effect	-	MDBK	50 µM
Nc1ccn(C[C@@H](CO)OCP(=O)(O)O)c(=O)n1	PCV-resistant/B	EC50	Varicella zoster virus	plaque count	-	HEL	0.15 µg/mL
O=c1cnn([C@@H]2O[C@H](CO)[C@@H](O)[C@H]2O)c(=O)[nH]1	NEW YORK	EC50	West Nile virus	cytopathic effect	-	VERO	1.2 µg/mL
C[C@H]1NCc2cc(-c3ccc4c(=O)c(C(=O)O)cn(C5CC5)c4c3OC(F)F)ccc21	17 strains (beta-lactamase-producing)	MIC50	Haemophilus influenzae	-	-	-	0.016 µg/mL
CCn1cc(C(=O)O)c(=O)c2cnc(N3CCNCC3)nc21	KOS	EC50	Herpes simplex virus 1	cytopathic effect	-	HeLa	>200 µg/mL
Nc1ccn([C@@H]2C[C@H](CO)[C@@H](O)[C@H]2O)c(=O)n1	-	EC50	Vesicular stomatitis virus	cytopathic effect	-	HEP-2	200 µg/mL
COc1cc(Cc2cnc(N)nc2N)cc(OC)c1Br	ATCC 19423	MBC	Mycobacterium ulcerans	-	-	-	8 µg/mL
CN1CCN(c2c(F)cc3c(=O)c(C(=O)O)cn4c3c2SCC4)CC1	30 strains	MIC90	Staphylococcus aureus	-	-	-	2 µg/mL
Nc1ncn([C@@H]2O[C@H](CO)[C@@H](O)[C@H]2O)c(=O)n1	NEW YORK	EC50	West Nile virus	cytopathic effect	-	VERO	>565 µg/mL
Nc1ncnc2c1ncn2[C@H]1CC[C@@H](CO)O1	KV1772	EC50	Maedi-visna virus	cytopathic effect	-	Sheep chondrocytes G81092	0.41 µM
NC(=O)c1ncn([C@@H]2O[C@H](CO)[C@@H](O)[C@H]2O)n1	-	EC50	Pichinde virus	antigen	-	VERO 76	4.6 µg/mL
Cc1cc(O)c2c(c1O)C(=O)c1cccc(O)c1C2=O	KOS	EC50	Herpes simplex virus 1	cytopathic effect	-	HeLa	>200 µg/mL
NC(=O)c1ncn([C@@H]2O[C@H](CO)[C@@H](O)[C@H]2O)n1	LONG	EC50	Respiratory syncytial virus	ELISA	-	HEP-2	10.5 µM
CCC[C@H](NC(=O)[C@@H]1[C@H]2CCC[C@H]2CN1C(=O)[C@@H](NC(=O)[C@@H](NC(=O)c1cnccn1)C1CCCCC1)C(C)(C)C)C(=O)C(=O)NC1CC1	S52	EC50	Hepatitis C virus	antigen	-	Huh7.5	3.367 µM
N=C(N)c1ncn([C@@H]2O[C@H](CO)[C@@H](O)[C@H]2O)n1	Influenza A/Victoria/3/75 (H3N2)	EC50	Influenza A virus	neutral red	-	MDCK	11 µg/mL
COc1c(C)c2c(c(O)c1CC(=O)O)C(=O)OC2	TYPE 3/C243	EC50	Parainfluenza virus	plaque count	-	VERO	0.1 µg/mL
c1cc(CN2CCCNCCNCCCNCC2)ccc1CN1CCCNCCNCCCNCC1	CM7 CLADE C R5	inhibition	HIV-1	p24	0.1 µM	PBMC	19%
CCOc1cc(Cc2cnc(N)nc2N)cc(OCC)c1-n1cccc1	Isolate 5143	MBC	Mycobacterium ulcerans	-	-	-	0.5 µg/mL
C=CC(C)(C)C1=Cc2cc3c(cc2OC1=C)OC(C(C)(C)OC(C)=O)C3	-	EC50	Epstein-Barr virus	PCR	-	P3HR-1	3.78 µM
OC[C@H]1O[C@@H](n2cnc3c(NC4CCCCCC4)ncnc32)[C@H](O)[C@@H]1O	KV1772	EC50	Maedi-visna virus	cytopathic effect	-	Sheep chondrocytes G81092	15 µM
CC1=CC(=O)c2c(O)cccc2C1=O	CCAM 080006	MIC100	Aspergillus oryzae	broth dilution	-	-	0.625 µg/mL
CN[C@@H]1[C@H](O[C@H]2[C@H](O[C@H]3[C@H](O)[C@@H](O)[C@H](N=C(N)N)[C@@H](O)[C@@H]3N=C(N)N)O[C@@H](C)[C@]2(O)C=O)O[C@@H](CO)[C@H](O)[C@H]1O	ESBL-3967	zone	Klebsiella pneumoniae	agar diffusion	250 µg/disc	-	12 mm
C#CC[C@@H](C(=O)N[C@H](/C=C/C(=O)OCC)C[C@@H]1CCNC1=O)n1cccc(NC(=O)c2cc(C)on2)c1=O	Serotype 39	EC90	Rhinovirus	cytopathic effect / XTT	-	H1-HELA	0.277 µM
Nc1nc(Cl)nc2c1ncn2[C@H]1CC[C@@H](CO)O1	KV1772	EC50	Maedi-visna virus	cytopathic effect	-	Sheep chondrocytes G81092	0.15 µM
Nc1cc2c(ncn2[C@@H]2O[C@H](CO)[C@@H](O)[C@H]2O)c(=O)[nH]1	NEW YORK	EC50	West Nile virus	cytopathic effect / visual reading	-	VERO	>32 µg/mL
COC(=O)[C@H]1[C@@H]2C[C@@H](O[C@@H]3O[C@H](C)[C@@H](O)[C@H](N)[C@@H]3O)/C=C/C=C/C=C/C=C/C=C/C=C/C=C/[C@H](C)[C@@H](O)[C@H](C)[C@H](C)OC(=O)C[C@H](O)C[C@H](O)[C@@H](O)CC[C@H](O)C[C@H](O)C[C@](O)(C[C@@H]1O)O2	-	inhibition	Vesicular stomatitis virus	plaque count	50 µg/mL	L929	6%
CC[C@H]1OC(=O)[C@H](C)[C@@H](O[C@H]2C[C@@](C)(OC)[C@@H](O)[C@H](C)O2)[C@H](C)[C@@H](O[C@@H]2O[C@H](C)C[C@H](N(C)C)[C@H]2O)[C@](C)(OC)C[C@@H](C)C(=O)[C@H](C)[C@@H](O)[C@]1(C)O	20 strains (methicillin-resistant)	MIC90	Staphylococcus aureus	-	-	-	>32 µg/mL
C[C@]12CCC(=O)C=C1CC[C@@H]1[C@@H]2C(=O)C[C@@]2(C)[C@H]1CC[C@]2(O)C(=O)CO	KOS	EC50	Herpes simplex virus 1	cytopathic effect	-	HeLa	>10 µg/mL
CO[C@H]1/C=C/O[C@@]2(C)Oc3c(C)c(O)c4c(=O)c(c5oc6cc(N7CCN(CC(C)C)CC7)cc(=O)c6nc5c4c3=C2O)NC(=O)/C(C)=C\C=C\[C@H](C)[C@H](O)[C@@H](C)[C@@H](O)[C@@H](C)[C@H](OC(C)=O)[C@@H]1C	16 strains (methicillin- quinolone-resistant)	MIC90	Staphylococcus aureus	-	-	-	0.0625 µg/mL
C[C@@H]1CN(c2c(F)c(N)c3c(=O)c(C(=O)O)cn(C4CC4)c3c2F)C[C@H](C)N1	Clinical isolate RT1	MIC	Streptococcus pneumoniae	-	-	-	4 µg/mL
OC[C@@H]1CC[C@H](n2cnc3c(NC4CC4)nc(Cl)nc32)O1	IRB-LA	EC50	Bovine herpesvirus 1	cytopathic effect	-	MDBK	50 µM
Nc1ncnc2c1ncn2[C@H]1CC[C@@H](CO)O1	LAV-2	inhibition	HIV-2	virus yield	100 µM	CEM	99.9%
C[C@H]1[C@H](O)[C@@H](C)/C=C/C=C/C=C/C=C/C=C/C=C/C=C/[C@H](O[C@@H]2O[C@H](C)[C@@H](O)[C@H](N)[C@@H]2O)C[C@@H]2O[C@](O)(C[C@@H](O)C[C@@H](O)CC[C@H](O)[C@@H](O)C[C@@H](O)CC(=O)O[C@H]1C)C[C@H](O)[C@H]2C(=O)O	KOS	EC50	Herpes simplex virus 1	cytopathic effect	-	HeLa	>200 µg/mL
Nc1nc2c(ncn2COC(CO)CO)c(=O)[nH]1	BVaraU-resistant	EC50	Varicella zoster virus	plaque count	-	HEL	1.7 µg/mL
C=C(C)CN(CC)c1c([N+](=O)[O-])cc(C(F)(F)F)cc1[N+](=O)[O-]	Oryzalin-resistant	EC50	Toxoplasma gondii	-	-	-	5 µM
CN[C@@H]1[C@@H](O)[C@@H](O[C@@H]2[C@@H](O)[C@H](O[C@H]3O[C@H]([C@H](C)N)[C@@H](O)[C@H](O)[C@H]3N)[C@@H](N)C[C@H]2N)OC[C@]1(C)O	KOS	EC50	Herpes simplex virus 1	cytopathic effect	-	HeLa	>100 µg/mL
Nc1ccn([C@@H]2C=C(CO)[C@@H](O)[C@@H]2O)c(=O)n1	NEW YORK	EC90	West Nile virus	virus yield	-	MA-104	1.4 µg/mL
Nc1ncnc2c1ncn2CCOCP(=O)(O)O	Oka PMEDAP-resistant	EC50	Varicella zoster virus	cytopathic effect	-	HEL	120.4 µM
O=C(O)P(=O)(O)O	PCV-resistant/A	EC50	Varicella zoster virus	plaque count	-	HEL	98 µg/mL
C[C@@H]1[C@H](O)[C@@H](C)/C=C/C=C/CC/C=C/C=C/C=C/C=C/C(O[C@H]2O[C@H](C)[C@@H](O)[C@H](N)[C@@H]2O)CC2O[C@](O)(CC(O)C(O)CCC(O)CC(O)CC(O)CC(=O)O[C@H]1C)CC(O)C2C(=O)O	ATCC 40277	MFC100	Candida albicans	broth dilution	-	-	64 µg/mL
NC(=O)c1[nH]nc([C@@H]2O[C@H](CO)[C@@H](O)[C@H]2O)c1O	NEW YORK	EC50	West Nile virus	cytopathic effect / visual reading	-	VERO	2.1 µg/mL
COC(=O)N[C@H](C(=O)N1CCC[C@H]1c1ncc(-c2ccc(-c3ccc(-c4cnc([C@@H]5CCCN5C(=O)[C@@H](NC(=O)OC)C(C)C)[nH]4)cc3)cc2)[nH]1)C(C)C	JFH-1	EC50	Hepatitis C virus	antigen	-	Huh7.5	0.00008 µM
O=c1cc[nH]c(=S)[nH]1	NEW YORK	EC50	West Nile virus	cytopathic effect	-	VERO	100 µg/mL
CC(=O)O[C@H]1C[C@@]2(C)[C@@H](C[C@@H](O)[C@H]3[C@@]4(C)CC[C@@H](O)[C@@H](C)[C@@H]4CC[C@@]32C)/C1=C(\CCC=C(C)C)C(=O)O	KOS	EC50	Herpes simplex virus 1	cytopathic effect	-	HeLa	>200 µg/mL
CC(C)[C@H](NC(=O)[C@H](CCCN=C(N)N)NC(=O)N[C@@H](Cc1ccccc1)C(=O)O)C(=O)N[C@H](C=O)CCCN=C(N)N	-	inhibition	Cryptosporidium parvum	cell count / microscopy	100 µg/mL	-	57.9%
COc1c(C)c2c(c(O)c1C/C=C(\C)CCC(=O)O)C(=O)OC2	Uganda	EC50	West Nile virus	cytopathic effect / visual reading	-	VERO	0.1 µg/mL

MIC50, MIC90 and the like: level of inhibition, or share of isolates inhibited. Zones are inhibition diameters on agar. Inhibition is in % at the dose shown (toxicity tests: loss of growth or viability). Blank or dashed fields: not listed here. ECn: concentration that inhibits the pathogen or its effect by n%. Two numbers with a dash give a range or band.